Experimental data: PubChem BioAssay AID504761 (Drosophila RNAi Screening Center, 2011)

Screen: 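Fly genes whose silencing reduces dengue virus type 2 infection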 (primary screen)
Cells: D.Mel-2 cells from Drosophila
Reagents: long dsRNA against Drosophila genes
Challenge: infection with dengue virus type 2; dose and infection time not stated
Read-out: 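Cells stained for dengue envelope protein and imaged; percent of infected cells per well on duplicate plates, ranked by infection, with stained nuclei counted for cell number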
Scale: infection score: higher = more virus-infected cells; cell count: higher = more cells in the well
Call rule: 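Very low infection ranking in both replicate wells (chance probability at most 0.065), then a retest showing infection dropped 1.5-fold or more at p below 0.05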
Calls: active = confirmed: knock-down lowers infection; inactive = not picked or not confirmed
The screen tested about 22,000 reagents; shown is a random part of those with a known target gene and a result. Over the whole deposit, 116 (0.52%) got an active call. 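Calls depend on retest data that are not deposited; infection was ranked per plate without normalising between plates; the unit of the infection score is not given.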 Raw values are not corrected between plates. Entries without a mark were called inactive. Names joined by + are all predicted targets of the reagent. Reagent sequences are not shown. Not stated in the record: the amount of reagent, the time to read-out.

| gene | DRSC id | infection score, replicate 1 | infection score, replicate 2 | cell count, replicate 1 | cell count, replicate 2 |
| --- | --- | --- | --- | --- | --- |
| m-cup (mann-cup) | DRSC14430 | 9.31 | 13.1 | 6357 | 6439 |
| Top1 (Topoisomerase 1) | DRSC20295 | 13.8 | 19.2 | 1359 | 4778 |
| CG14069 | DRSC02372 | 1.72 | 2.63 | 6460 | 6490 |
| CngA (Cyclic nucleotide-gated ion channel subunit A) | DRSC06580 | 8.48 | 19.5 | 1933 | 4269 |
| CngA (Cyclic nucleotide-gated ion channel subunit A) | DRSC07362 | – | 8.19 | 485 | 2260 |
| CngA (Cyclic nucleotide-gated ion channel subunit A) | DRSC23533 | 17.8 | 15.6 | 6623 | 4941 |
| Gr89a (Gustatory receptor 89a) | DRSC15023 | 2.97 | 1.41 | 6268 | 6170 |
| CG16743 | DRSC24981 | 5.24 | 8.38 | 5842 | 5595 |
| CG15458 | DRSC20529 | 2.59 | 0.33 | 6091 | 5993 |
| Mkp + CG34140 | DRSC08585 | 4.23 | 16.2 | 5722 | 4653 |
| CG18004 | DRSC06705 | 5.71 | 3.41 | 5780 | 6402 |
| CG18004 | DRSC26317 | 3.82 | 13.8 | 4840 | 6066 |
| CG42326 | DRSC06483 | 15.7 | 17.5 | 5602 | 6700 |
| CG42326 | DRSC06484 | 13 | 3.25 | 6038 | 6680 |
| CG42326 | DRSC24293 | 15.6 | 9.85 | 6128 | 2334 |
| CG15252 | DRSC17981 | 16.1 | 9.44 | 5405 | 4999 |
| CG15252 | DRSC29645 | 27.8 | – | 6088 | 413 |
| CapaR (Capability receptor) | DRSC23640 | 1.87 | 1.53 | 6774 | 6551 |
| Oda (Ornithine decarboxylase antizyme) | DRSC07626 | 2.92 (active) | 4.23 | 5758 | 6099 |
| Oda (Ornithine decarboxylase antizyme) | DRSC28076 | 11.6 | 4.14 | 6261 | 6378 |
| Acbp2 (Acyl-CoA binding protein 2) | DRSC11141 | 3.27 | 1.71 | 6263 | 6090 |
| Acbp2 (Acyl-CoA binding protein 2) | DRSC24352 | 0.85 | 1.16 | 6673 | 6320 |
| CG31050 | DRSC13883 | 1.39 | 4.28 | 6096 | 4765 |
| CG8838 | DRSC00712 | 2.37 | 6.75 | 6284 | 6114 |
| CG8838 | DRSC27117 | 23.3 | 23.6 | 6255 | 6030 |
| CG11658 | DRSC09852 | 1.61 | 2.97 | 5965 | 6017 |
| RpL27 (Ribosomal protein L27) | DRSC15638 | 1.8 | 1.48 | 611 | 540 |
| RpL27 (Ribosomal protein L27) | DRSC25890 | 3.61 | 3.51 | 4235 | 5066 |
| CG17633 | DRSC02631 | 5.69 | 5.76 | 6481 | 6263 |
| CG17633 | DRSC29709 | 6.34 | 4.71 | 6486 | 6120 |
| mts (microtubule star) | DRSC03574 | 18.3 | 14.5 | 1817 | 1845 |
| pre-mod(mdg4)-AD + mod(mdg4) + pre-mod(mdg4)-X + 3 more | DRSC16328 | 5.38 | 7.52 | 6284 | 6513 |
| CG34396 | DRSC04245 | 23.5 | 33.1 | 6593 | 5335 |
| CG34396 | DRSC04246 | 25.8 | 12.8 | 6414 | 6135 |
| CG34396 | DRSC29674 | – | 7.13 | 335 | 897 |
| scramb2 (scramblase 2) | DRSC08543 | 1.79 | 4.44 | 6079 | 5492 |
| scramb2 (scramblase 2) | DRSC26609 | 2.07 | 1.65 | 5995 | 6526 |

Reprinted from above (10 entries):
| gene | DRSC id | infection score, replicate 1 | infection score, replicate 2 | cell count, replicate 1 | cell count, replicate 2 |
| --- | --- | --- | --- | --- | --- |
| RpL27 (Ribosomal protein L27) | DRSC15638 | 1.8 | 1.48 | 611 | 540 |
| RpL27 (Ribosomal protein L27) | DRSC25890 | 3.61 | 3.51 | 4235 | 5066 |
| CG17633 | DRSC02631 | 5.69 | 5.76 | 6481 | 6263 |
| CG17633 | DRSC29709 | 6.34 | 4.71 | 6486 | 6120 |
| mts (microtubule star) | DRSC03574 | 18.3 | 14.5 | 1817 | 1845 |
| pre-mod(mdg4)-AD + mod(mdg4) + pre-mod(mdg4)-X + 3 more | DRSC16328 | 5.38 | 7.52 | 6284 | 6513 |
| CG34396 | DRSC04245 | 23.5 | 33.1 | 6593 | 5335 |
| CG34396 | DRSC04246 | 25.8 | 12.8 | 6414 | 6135 |
| CG34396 | DRSC29674 | – | 7.13 | 335 | 897 |
| scramb2 (scramblase 2) | DRSC08543 | 1.79 | 4.44 | 6079 | 5492 |

Additional reagents follow.
| gene | DRSC id | infection score, replicate 1 | infection score, replicate 2 | cell count, replicate 1 | cell count, replicate 2 |
| --- | --- | --- | --- | --- | --- |
| CG9582 | DRSC03267 | 8.32 | 0.32 | 5530 | 6800 |
| CG4572 | DRSC15603 | 12 | 2.7 | 6493 | 7159 |
| CG32085 | DRSC10138 | 3.22 | 3.72 | 5876 | 6052 |
| CG32085 | DRSC10139 | 4.78 | 9.46 | 5855 | 6376 |
| CG32085 | DRSC10576 | 1.67 | 2.09 | 5763 | 6175 |
| CG12446 | DRSC20618 | 5.2 | 1.61 | 6215 | 5767 |
| CG13605 | DRSC14608 | 15.5 | 2.86 | 5837 | 6529 |
| CG30369 | DRSC21996 | 3.88 | 0.5 | 6683 | 7167 |
| CG30369 | DRSC29843 | 7.36 | 8.61 | 6485 | 6089 |
| CG32354 | DRSC10763 | 2.53 | 2.28 | 6789 | 6745 |
| CG32354 | DRSC10775 | 19.5 | 2.49 | 3545 | 724 |
| CG32354 | DRSC21919 | 2.48 | 2.26 | 6379 | 6383 |
| sub (subito) | DRSC06125 | 11.9 | 7.6 | 3942 | 1395 |
| Sec10 (Secretory 10) | DRSC17053 | 2.02 | 2.9 | 5693 | 6100 |
| Sec10 (Secretory 10) | DRSC29106 | 17.8 | – | 4483 | 348 |
| sax (saxophone) | DRSC07675 | 2.63 | 32.5 | 646 | 5568 |
| sax (saxophone) | DRSC26844 | 19.2 | 2.05 | 5983 | 6331 |
| dve (defective proventriculus) | DRSC04680 | 15 | 8.35 | 5349 | 1857 |
| dve (defective proventriculus) | DRSC28692 | 7.81 | 8.26 | 5070 | 5195 |
| Aladin | DRSC18121 | 1.39 | 1.29 | 6614 | 6067 |
| Aladin | DRSC29497 | – | – | 352 | 372 |
